Anti-infective test results gathered from many reports (values: NIAID ChemDB through PubChem).

Shared fields: whole-cell or culture tests; agent: Hepatitis C virus; endpoint: inhibition

An empty or dashed field is not shown. Percent inhibition refers to the dose given; in toxicity tests it is the harm to the cells. Neighbouring rows are from separate reports.

| structure | cells | dose | method | strain | result |
|---|---|---|---|---|---|
| Nc1nc2c(cnn2[C@H](C=O)O[C@@H](C=O)CO)c(=O)[nH]1 | Huh7 | 50 µM | luciferase / reporter gene | GT1b | 0% |
| O=C(N[C@@H](C(=O)N1CCC[C@H]1C(=O)Nc1nc(-c2ccccc2)cs1)c1ccccc1)C1CC1 | JFH1 | 0.5738 µM | luciferase | genotype 2a infectious HCV | 90% |
| N#Cc1c(N)nc(SCC(=O)c2ccc(O)c(O)c2)c(C#N)c1-c1ccc(O)cc1 | Huh7/Rep-Feo1b | 50 µM | luciferase / replicon | 1b | 85.8% |
| COc1cc(C2OCC3C(=O)OCC32)cc(O)c1OC | Ava5 | 15 µM | PCR |  | 80% |
| C[C@@H]1[C@H]2[C@H](O)OC=C(C(=O)O)[C@H]2C[C@@H]1O |  | 20 µg/mL | entry |  | 52.5% |
| COc1cc(Cc2cnc(/N=C3\C(=O)N(CN4CCN(c5ccccc5)CC4)c4ccc(Br)cc43)nc2N)cc(OC)c1OC | Huh7 | 50 µg/mL | replicon |  | 4% |
| N#Cc1c(SCc2ccncc2)sc2c(=O)[nH]c(=O)[nH]c12 | Huh7.5 | 50 µM | luciferase / reporter gene | GT2a | 31% |
| COC(=O)/C=C1\S/C(=N/N=C/c2ccc(OC)cc2)NC1=O | Huh 5-2 | 31.7 µM | luciferase / luminescence | 1b Con1 (replicon) | 64.9% |
| C[C@]1(OC(=O)/C=C/c2ccccc2)C[C@@H](O)[C@]2(O)C=CO[C@@H](O)[C@@H]21 |  | 20 µg/mL | entry |  | 17.1% |
| CC1=CC2NC(/C(C#N)=C/c3ccc(O)c(O)c3)=NC2C=C1 | Huh7/Rep-Feo1b | 50 µM | luciferase / replicon | 1b | 97% |
| CC1(C)CC[C@@]2(C(=O)NCc3cn(CCCn4cc(CNC(=O)[C@]56CCC(C)(C)CC5C5=CCC7[C@@]8(C)CC[C@H](O)C(C)(C)C8CC[C@@]7(C)[C@]5(C)C[C@H]6O)nn4)nn3)C(C1)C1=CCC3[C@@]4(C)CC[C@H](O)C(C)(C)C4CC[C@@]3(C)[C@]1(C)C[C@H]2O | Huh7 | 1 µM | luciferase / entry |  | 86.3% |
| O=C1CSC(=Nc2nnc(-c3ccccc3Cl)s2)N1 | Huh7 | 50 µM | luciferase | GT1b | 0% |
| COC(=O)/C=C1\S/C(=N/N=C/c2c(F)cccc2Cl)NC1=O | Huh 5-2 | 20.9 µM | luciferase / luminescence | 1b Con1 (replicon) | 77% |
| O=C(Nc1cccc(-c2cscn2)c1)C1CCN(Cc2cccc(-c3ccco3)c2)CC1 | Huh7 | 15 µM | PCR | JFH-1 | ≥40% |
| CC(=O)c1ccc(NC(=O)C2=c3nc(C)[nH]c(=O)c3=NC2)cc1 | Huh7.5 | 50 µM | luciferase / reporter gene | GT2a | 0% |
| C=Cc1cn([C@@H]2C=C(CO)[C@@H](O)[C@H]2O)c2ncnc(N)c12 |  | 20 µM | replicon |  | 19.2% |
| COC(=O)/C=C1\S/C(=N/N=C/c2cccc(OC)c2)NC1=O | Huh 5-2 | 34 µM | luciferase / luminescence | 1b Con1 (replicon) | 76.1% |
| O=C1CSC(=Nc2nnc(-c3cccnc3)s2)N1 | Huh7 | 50 µM | luciferase | GT1b | 0% |
| COC(=O)/C=C1\S/C(=N/N=C/c2ccc(OCc3ccccc3)cc2)NC1=O | Huh 5-2 | 50 µM | luciferase / luminescence | 1b Con1 (replicon) | 81.5% |
| CC1(C)CC[C@@]2(C(=O)NCc3cn(CCOCCOCCOCCn4cc(CNC(=O)[C@]56CCC(C)(C)CC5C5=CCC7[C@@]8(C)CC[C@H](O)C(C)(C)C8CC[C@@]7(C)[C@]5(C)C[C@H]6O)nn4)nn3)C(C1)C1=CCC3[C@@]4(C)CC[C@H](O)C(C)(C)C4CC[C@@]3(C)[C@]1(C)C[C@H]2O | Huh7 | 5 µM | luciferase / entry |  | 91.9% |
| Cc1ccc(-c2c(C#N)c(SCC(=O)c3ccc(O)c(O)c3)nc3c2CCCC3)o1 | Huh7/Rep-Feo1b | 50 µM | luciferase / replicon | 1b | 96.7% |
| COc1cc(Cc2cnc(/N=C3\C(=O)N(CN4CCN(C)CC4)c4ccc(Br)cc43)nc2N)cc(OC)c1OC | Huh7 | 50 µg/mL | replicon |  | 24% |
| N#C/C(=C\c1ccc(-c2ccc(F)cc2F)o1)c1nn(CCO)c(N)c1C#N | Huh7/Rep-Feo1b | 50 µM | luciferase / replicon | 1b | 79.7% |
| COc1cccc(-c2ccccc2NC(=O)C2CCN(Cc3ccc(OC)c(C)c3)CC2)c1 | Huh7 | 15 µM | PCR | JFH-1 | ≥40% |
| COc1cc(Cc2cnc(/N=C3\C(=O)N(CN4CCN(c5cc6c(cc5F)c(=O)c(C(=O)O)cn6C5CC5)CC4)c4ccc(Br)cc43)nc2N)cc(OC)c1OC | Huh7 | 50 µg/mL | replicon |  | 19% |
| COC(=O)/C=C1\S/C(=N/N=C/c2cccc(Br)c2)NC1=O | Huh 5-2 | 9.6 µM | luciferase / luminescence | 1b Con1 (replicon) | 71.8% |
| Cc1n[nH]c(=O)c2cc3c(C)n[nH]c(=O)c3cc12 | Huh7 | 50 µM | luciferase / reporter gene | GT1b | 0% |
| CC1(C)CC[C@@]2(C(=O)NCCCCCCCCCCCCNC(=O)[C@]34CCC(C)(C)CC3C3=CCC5[C@@]6(C)CC[C@H](O)C(C)(C)C6CC[C@@]5(C)[C@]3(C)C[C@H]4O)C(C1)C1=CCC3[C@@]4(C)CC[C@H](O)C(C)(C)C4CC[C@@]3(C)[C@]1(C)C[C@H]2O | Huh7 | 1 µM | luciferase / entry |  | 56.2% |
| O=C1CSC(=Nc2nnc(-c3ccc(Cl)cc3Cl)s2)N1 | Huh7 | 50 µM | luciferase | GT1b | 0% |
| COC(=O)C1=CO[C@@H](O[C@@H]2O[C@H](CO)[C@@H](O)[C@H](O)[C@H]2O)[C@H]2[C@@H]1C(=O)C[C@@H]2C |  | 20 µg/mL | entry |  | 0% |
| O=C(CCc1c[nH]c2ccccc12)OCC(=O)c1ccc2ccccc2c1 | Huh7/Rep-Feo1b | 50 µM | luciferase / replicon | 1b | 51.1% |
| O=C1CSC(=Nc2nnc(-c3c(Cl)cccc3Cl)s2)N1 | Huh7 | 50 µM | luciferase | GT1b | 40% |
| COc1cc(Cc2cnc(/N=C3\C(=O)N(CN4CCOCC4)c4ccc(Br)cc43)nc2N)cc(OC)c1OC | Huh7 | 50 µg/mL | replicon |  | 20% |
| O=C(OCC1=C[C@@H](O)[C@@H]2C=CO[C@@H](O)[C@H]12)c1ccc(O)cc1 |  | 20 µg/mL | entry |  | 20.3% |
| COC(=O)/C=C1\S/C(=N/N=C/c2ccc(Cl)cc2)NC1=O | Huh 5-2 | 48.9 µM | luciferase / luminescence | 1b Con1 (replicon) | 80.2% |
| COC(=O)C1=CO[C@@H](O)[C@@H]2[C@@H](C)[C@@H](O)C[C@H]12 |  | 20 µg/mL | entry |  | 41.4% |
| O=C(Nc1cccc(-c2cccc(F)c2)c1)C1CCN(Cc2cccc3c2NSN3)CC1 | Huh7 | 15 µM | PCR | JFH-1 | ≥40% |
| CC1(C)CC[C@@]2(C(=O)NCc3cn(Cc4ccccc4Cn4cc(CNC(=O)[C@]56CCC(C)(C)CC5C5=CCC7[C@@]8(C)CC[C@H](O)C(C)(C)C8CC[C@@]7(C)[C@]5(C)C[C@H]6O)nn4)nn3)C(C1)C1=CCC3[C@@]4(C)CC[C@H](O)C(C)(C)C4CC[C@@]3(C)[C@]1(C)C[C@H]2O | Huh7 | 5 µM | luciferase / entry |  | 65.7% |
| COc1cccc(-c2ccccc2NC(=O)C2CCN(CC(C)(C)C)CC2)c1 | Huh7 | 15 µM | PCR | JFH-1 | ≥40% |
| O=C1N/C(=N\c2nnc(-c3ccc(Cl)cc3)s2)S/C1=C\c1ccc(Cl)cc1Cl | Huh7/Rep-Feo1b | 100 µM | MTS |  | 0% |

Again, the opening 2 rows:

structure | cells | dose | method | strain | result
Nc1nc2c(cnn2[C@H](C=O)O[C@@H](C=O)CO)c(=O)[nH]1 | Huh7 | 50 µM | luciferase / reporter gene | GT1b | 0%
O=C(N[C@@H](C(=O)N1CCC[C@H]1C(=O)Nc1nc(-c2ccccc2)cs1)c1ccccc1)C1CC1 | JFH1 | 0.5738 µM | luciferase | genotype 2a infectious HCV | 90%